Assay results from patent US20060121056A1.

Biological target: SNAP-25 (rat) (UniProt P60881)

Work on “SBA-LHN/A conjugate (lectin from Glycine max chemically conjugated to LHN/A) (enzyme)” yielded an IC50, inhibition of substance P release from eDRG neurons (three days) (microgrammes/ml) of 1.84.
